Source: PMC4624681, “TIM-1 acts a dual-attachment receptor for Ebolavirus by interacting directly with viral GP and the PS on the viral envelope” (Protein & Cell, 2015)

Target: Bundibugyo GP (1–308) with a Fc tag (Ebolavirus, Bundibugyo strain, UniProt B8XCN0)

B1: Ig V domain of human T-cell immunoglobulin and mucin domain protein 1 (hTIM-1) (domain or fragment)
chain: VKVGGEAGPSVTLPCHYSGAVTSMCWNRGSCSLFTCQNGIVWTNGTHVTYRKDTRYKLLGDLSRRDVSLTIENTAVSDSGVYCCRVEHRGWFNDMKITVSLEIVPP
Work on B1 yielded a Kd of ~4.9 µM.
